A mixed list of measured activities; the numbers were collected in NIAID ChemDB.

Shared fields: growth or infection tests; agent: Rhinovirus; read by: plaque count; endpoint: EC50

Rows are shuffled and stem from different studies.

compound,cells,strain or isolate,result
Cn1c2ccccc2c2nnc(N3CCOCC3)nc21,WI-38,HGP,220 µg/mL
COc1ccc(OCCCCCCn2ccnc2)c(Cl)c1,HeLa,TYPE 1A,29.1 µM
CON[C@H](C(=O)N[C@@H](CC(C)C)C(=O)N[C@@H](Cc1ccccc1)C(=O)C(=O)/C=C/[C@H](CCC(N)=O)NC(=O)[C@H](N)CCC(=O)O)C(C)C,HeLa,TYPE 14,>10 µg/mL
COc1cc(C(=O)Oc2c(-c3ccc(Cl)cc3)oc3ccccc3c2=O)ccc1OC(C)=O,HeLa,Serotype 14,>6.25 µM
Nc1ncnc2c1ncn2Cc1cccc(NC(=O)C(N)Cc2ccccc2)c1,M-HELA,Serotype 1B,>50 µM
Cc1cc(CCCOc2c(Cl)cc(C3=NCCO3)cc2Cl)on1,-,Serotype 3,>6.2 µg/mL
CON[C@@H](Cc1ccccc1)C(=O)C(=O)/C=C/[C@H](CCC(N)=O)NC(=O)OCc1ccccc1,HeLa,TYPE 14,3.2 µg/mL
Brc1ccc(C2=Cc3ccccc3OC2)cc1,M-HELA,Serotype 1B,3.846 µM
Nc1ncnc2c1ncn2Cc1ccc(NC(=O)C(N)Cc2ccccc2)cc1,M-HELA,Serotype 1B,>50 µM
OCCCNc1nnc2c3ccccc3n(CCc3ccccc3)c2n1,WI-38,33342,4 µg/mL
Cc1ccc(Cn2cnc3c(N(C)C)nc(C(F)(F)F)nc32)cc1,M-HELA,TYPE 3,>2.5 µM
CS(=O)(=O)c1cnc2c(c1)CCC(c1ccc(Cl)c(Cl)c1)O2,HeLa,Serotype 1A,<0.5 µg/mL
O=c1c(Cc2ccccc2)coc2ccccc12,HeLa,TYPE 14,6.2 µM
O=C(O)c1ccc(-c2cc(=O)c3ccccc3o2)cc1,OHIO HELA,TYPE 1B,>25 µM
O=c1cc(/C=C/c2ccc(Cl)cc2)oc2ccc(Cl)cc12,HeLa,Serotype 1B,9.27 µM
CON[C@H](CCC(=O)OC(C)(C)C)C(=O)N[C@H](C(=O)N[C@@H](CC(C)C)C(=O)N[C@@H](Cc1ccccc1)C(=O)C(=O)/C=C/[C@H](CCC(N)=O)NC(=O)OC(C)(C)C)C(C)C,HeLa,TYPE 14,4.5 µg/mL
N#Cc1ccc(Nc2nc(Cl)nc3c2ncn3Cc2ccccc2)cc1,-,Serotype 1B,9.8 µM
COc1c(-c2ccc(C3=NCCO3)cc2)oc2ccc(Cl)cc2c1=O,OHIO HELA,TYPE 1B,4.47 µM
O=C1/C(=C/c2ccc(Cl)cc2)COc2ccccc21,HeLa,TYPE 1B,3.4 µM
CC(C)C[C@H](NC(=O)[C@@H](NO)C(C)C)C(=O)N[C@@H](Cc1ccccc1)C(=O)C(=O)/C=C/[C@H](CCC(N)=O)NC(=O)OC(C)(C)C,HeLa,TYPE 14,>10 µg/mL
CCCc1cc(CCCOc2c(C)cc(-c3noc(C)n3)cc2C)on1,HeLa,serotype 2 1A 1B 6 14 21 22 15 25 30 50 67 89 86 41,0.018 µg/mL
N#Cc1ccc(C2CCc3ccccc3O2)cc1,HeLa,Serotype 1B,2.88 µM
CC(=O)c1c(-c2ccc(Cl)c(Cl)c2)oc2ccccc2c1=O,HeLa,Serotype 14,0.83 µM
Nc1ccc(/C=C/c2cc(=O)c3ccccc3o2)cc1,HeLa,Serotype 1B,15.06 µM
CCCCN1C(=O)c2ccccc2C(C(C)=O)C1=O,HeLa,Serotype 14,4.2 µM
Fc1cccc(Cn2cnc3c(Nc4cccc(F)c4)nc(C(F)(F)F)nc32)c1,M-HELA,Serotype 21,50 µM
CON[C@H](C(=O)N[C@@H](CC(C)C)C(=O)N[C@@H](Cc1ccccc1)C(=O)C(=O)/C=C/[C@H](CCC(N)=O)NC(=O)OCc1ccccc1)C(C)C,HeLa,TYPE 14,0.93 µg/mL
NCC(=O)Nc1cccc(Cn2cnc3c(N)ncnc32)c1,M-HELA,Serotype 1B,>50 µM
O=c1c(O)c(-c2ccc(Cl)c(Cl)c2)oc2ccccc12,HeLa,Serotype 1B,3.19 µM
Cc1cc(CCCCCOc2c(Cl)cc(C3=NCCO3)cc2Cl)on1,HeLa,TYPE 38,0.018 µg/mL
NC(=O)CCC(/C=C/S(=O)(=O)c1ccccc1)NC(=O)[C@H](Cc1ccccc1)NC(=O)OCc1ccccc1,HeLa,TYPE 14,>10 µg/mL
N#Cc1ccc(C2COc3ccccc3C2)cc1,HeLa,Serotype 1B,1.47 µM
Cn1c2ccccc2c2nnc(NCCCCCCO)nc21,WI-38,HGP,20 µg/mL
COc1cc(/C=C/C(=O)Oc2c(-c3ccc(Cl)cc3)oc3ccccc3c2=O)ccc1O,HeLa,Serotype 1B,3.6 µM
N#Cc1ccc(C2CCc3cc(C#N)ccc3O2)cc1,HeLa,Serotype 1B,0.023 µM
O=C(/C=C/c1ccc(O)c(O)c1)Oc1c(-c2ccc(Cl)cc2)oc2ccccc2c1=O,HeLa,Serotype 14,>6.25 µM
CCc1cc(CCCOc2c(C)cc(-c3nnc(C)o3)cc2C)on1,HeLa,serotype 2 1A 1B 6 14 21 22 15 25 30 50 67 89 86 41,0.042 µg/mL
CC(O)CCNc1nnc2c3ccccc3n(C)c2n1,WI-38,HGP,45 µg/mL
O=c1c(Cc2ccc(Cl)cc2)coc2cc(Cl)cc(Cl)c12,HeLa,TYPE 1B,3.9 µM
CC(C)CC(N)C(=O)Nc1ccc(Cn2cnc3c(N)ncnc32)cc1,M-HELA,Serotype 1B,>50 µM
O=C(/C=C(\O)c1ccccc1O)/C=C/c1ccc([N+](=O)[O-])cc1,HeLa,Serotype 1B,>6.25 µM
O=C1c2c(Cl)cc(Cl)cc2OCC1Cc1ccc(Cl)cc1,HeLa,TYPE 1B,3.7 µM
CCOC(=O)c1ccc(OCCCCCCc2cc(C)no2)cc1,HELA-OHIO,TYPE 2,0.01 µg/mL
CCCCCCCCCCCCCCOc1ccc(C(C)=O)o1,HFF,TYPE 39,<0.25 µg/mL
CS(=O)(=O)CCCN1C(=O)c2ccccc2C(CC(=O)c2ccccc2)C1=O,HeLa,Serotype 14,22.1 µM
O=C(/C=C(\O)c1ccccc1O)/C=C/c1ccc(Cl)cc1,HeLa,Serotype 14,>12.5 µM
Clc1ccc(C2=Cc3cc(Cl)ccc3OC2)cc1,M-HELA,Serotype 1B,0.397 µM
O=c1c(Cc2ccc(O)cc2)coc2ccccc12,HeLa,TYPE 1B,>25 µM
O=C(/C=C(\O)c1ccccc1O)/C=C/c1ccc(O)cc1,HeLa,Serotype 14,8.64 µM
Clc1ccc(C2COc3ccccc3C2)cc1,M-HELA,Serotype 1B,0.511 µM
CN(C)c1nc(Cl)nc2c1ncn2Cc1ccc(Cl)cc1,M-HELA,Serotype 14,>5 µM
COc1cc(C(=O)Oc2c(-c3ccc(Cl)cc3)oc3ccccc3c2=O)cc(OC)c1O,HeLa,Serotype 14,>1.56 µM
CN(C)c1ncnc2c1ncn2Cc1ccc(NC(=O)C(Cc2ccccc2)NC(=O)OCc2ccccc2)cc1,M-HELA,Serotype 1B,>50 µM
COC(=O)/C=C/[C@H](CCC(N)=O)NC(=O)[C@H](Cc1ccccc1)NC(=O)OC(C)(C)C,HeLa,TYPE 14,>10 µg/mL
O=c1c(O)c(-c2ccc(C3=NCCO3)cc2)oc2ccccc12,OHIO HELA,TYPE 1B,9.37 µM
CCOC(=O)CCCN1C(=O)Cc2ccccc2C1=O,HeLa,Serotype 14,25.1 µM
COc1cc(/C=C/C(=O)Oc2c(-c3ccc(Cl)c(Cl)c3)oc3ccccc3c2=O)ccc1OC(C)=O,HeLa,Serotype 14,>0.39 µM
N=C(N)c1ccc2c(c1)C=C(c1ccccc1)CO2,HeLa,Serotype 1B,9.6 µM
COc1ccc(/C=C2\COc3ccccc3C2=O)cc1,HeLa,TYPE 1B,>6.25 µM
Cc1cc(CCCOc2c(C)cc(-c3noc(C)n3)cc2C)on1,HeLa,serotype 2 1A 1B 6 14 21 22 15 25 30 50 67 89 86 41,0.012 µg/mL
N#Cc1ccc2c(c1)CCC(c1ccccc1)O2,HeLa,Serotype 1B,0.14 µM
COc1c(-c2ccc(C3=NCCO3)cc2)oc2ccccc2c1=O,OHIO HELA,TYPE 1B,14.05 µM
Cn1c2ccc(Cl)cc2c2nnc(NCCCO)nc21,WI-38,1059,220 µg/mL

A second listing of 5 rows from above:

compound	cells	strain or isolate	result
Nc1ccc(/C=C/c2cc(=O)c3ccccc3o2)cc1	HeLa	Serotype 1B	15.06 µM
CC(C)C[C@H](NC(=O)[C@@H](NO)C(C)C)C(=O)N[C@@H](Cc1ccccc1)C(=O)C(=O)/C=C/[C@H](CCC(N)=O)NC(=O)OC(C)(C)C	HeLa	TYPE 14	>10 µg/mL
O=c1cc(/C=C/c2ccc(Cl)cc2)oc2ccc(Cl)cc12	HeLa	Serotype 1B	9.27 µM
CON[C@H](C(=O)N[C@@H](CC(C)C)C(=O)N[C@@H](Cc1ccccc1)C(=O)C(=O)/C=C/[C@H](CCC(N)=O)NC(=O)OCc1ccccc1)C(C)C	HeLa	TYPE 14	0.93 µg/mL
N#Cc1ccc(C2CCc3ccccc3O2)cc1	HeLa	Serotype 1B	2.88 µM

Blank or dashed fields: not listed here. ECn: concentration that inhibits the pathogen or its effect by n%.